# Publication PMC4476580, “Novel Broad Spectrum Inhibitors Targeting the Flavivirus Methyltransferase” (PLoS ONE, 2015)
# Tested on: WNV
# Experiment: Viral titer reduction assay
# Conditions: CC50/EC50
row,SMILES,Therapeutic index
1,Cc1nn(-c2ccc(S(=O)(=O)[O-])cc2)c([O-])c1N=Nc1ccc(-c2ccc(N=Nc3ccc4c(S(=O)(=O)[O-])cc(S(=O)(=O)[O-])c(N)c4c3[O-])c([O-])c2)cc1[O-].[Cu+2].[Cu+2].[H+].[H+].[H+] [NSC 306711],332
2,CC1=C(Nc2c(C)cc(O)cc2O)C(=O)C=c2oc3c(c21)C(C)=C(Nc1c(C)cc(O)cc1O)C(=O)C=3 [NSC 610930],9.3
3,O=C1CN2CCN(CC2)CC(=O)Nc2ccc(cc2)S(=O)(=O)c2ccc(cc2)NC(=O)CN2CCN(CC2)CC(=O)Nc2ccc(cc2)S(=O)(=O)c2ccc(cc2)N1 [NSC 36806],~1
4,CN1CCN(c2ccc3[nH]c(-c4ccc5[nH]c(-c6ccc(O)cc6)nc5c4)nc3c2)CC1 [NSC 322921],~2.5
